The values below come from article PMC10374108, “Structural and biochemical characterization of the key components of an auxin degradation operon from the rhizosphere bacterium Variovorax” (PLOS Biology, 2023).

For this series, the system named is IadD/E-IadC dioxygenase system. Put plainly: In vitro IAA and analogs transformation assay, IadC + IadD/E. It counts as biochemical, Variovorax paradoxus CL14. The conditions noted are these: result in words. The protocol:
The reaction mixture was composed of 100 mM Tris-HCl (pH7.5), 250 μM reduced NADH, 10 μM ammonium iron (II) sulfate, and 3 μM of each enzyme component. […] The mixture was vortexed periodically to introduce oxygen for the reaction and was boiled to stop the reaction. After pelleting the precipitants, the supernatant was collected and mixed with 2 volumes of Salkowski reagent made of 0.5 M ferric chloride and 35% perchloric acid for the quantification of residual substrate by measuring the adsorption at 530 nm.
On to `O=C(O)Cc1c[nH]c2cccc(Cl)c12` [4-Cl-IAA, 4-chloroindole-3-acetic acid], for which the “transformation by IadD/E-IadC” value was “transformed with reduced efficiency”.
As for `O=C(O)CCCc1c[nH]c2ccccc12` [IBA, indole-3-butyric acid], the entry is “could not catalyze the turnover”.
Consider `O=C(O)Cc1c[nH]c2ccc(O)cc12` [5-HIAA, 5-hydroxy indole-3-acetic acid], for which the “transformation by IadD/E-IadC” value is reported as “could be further degraded”.
As for `O=C(O)CCc1c[nH]c2ccccc12` [IPA, indole-3-propionic acid], the “transformation by IadD/E-IadC” value is “could not catalyze the turnover”.
